Compound potency records, mixed from different reports. Data source: NIAID ChemDB in PubChem.

Common to all: toxicity to cultured cells; measure: CC50

Lines come from different laboratories, so protocols vary. An empty or dashed field is not shown. CCn is the concentration with n% toxicity to the cells.

| compound | cells | read by | result |
|---|---|---|---|
| COC(=O)C1=C(CN2CC(F)(F)[C@@H]3[C@H]2CON3C[C@H](OC)C(C)(C)C(=O)O)NC(c2nccs2)=N[C@H]1c1cccc(F)c1Cl | HepG2.2.15 | WST / absorbance | >100 µM |
| CC(C)CNC(=S)Nc1ccc2c(c1)Cc1cc(Br)ccc1-2 | Ava5-EG(delta4AB)SEAP | MTS | >1 µM |
| CCOC(=O)C1=C(CN2CC(F)(F)[C@H]3[C@@H]2CCN3C[C@@H](O)C(C)(C)C(=O)O)NC(c2nccs2)=N[C@H]1c1cccc(F)c1C | HepG2.2.15 | WST / absorbance | 6.5 µM |
| O=C(NCCc1ccc2c(n1)NCCC2)Nc1ccc2nc(C(F)(F)F)[nH]c2c1 | PBMC |  | 50 µM |
| CCOC(=O)C1=C(CN2CC(F)(F)[C@H]3[C@@H]2CCN3CC[C@](C)(O)C(=O)O)NC(c2nccs2)=N[C@H]1c1ccc(F)c(F)c1Cl | HepG2.2.15 | WST / absorbance | 50 µM |
| CCOC(=O)c1cnc2c(c1)c(O)c(C(=O)NCc1ccccc1)c(=O)n2O | HeLa |  | <100 µM |
| CCOC(=O)C1=C(CN2CC(F)(F)[C@H]3[C@@H]2CCN3CC[C@](C)(O)C(=O)O)NC(c2nccs2)=N[C@H]1c1ccc(F)c(F)c1C | HepG2.2.15 | WST / absorbance | 90.6 µM |
| O=c1c(-c2ccccc2)c(O)c2cc(-c3cccc(-c4ccccc4)c3)cnc2n1O | HeLa |  | <100 µM |
| O=C(NCCc1ccc2c(n1)NCCC2)Nc1cc(Cl)cc(Cl)c1 | PBMC |  | 18.7 µM |
| CCOC(=O)CCCCCOc1cccc(CN(C(=O)c2ccc(-c3ccc(C(C)=O)s3)cc2)C(C)C)c1 | RAJI |  | >20 µM |
| COc1ccc(OCCCCCOc2cccc(NC(N)=S)c2)cc1OC | Ava5-EG(delta4AB)SEAP | MTS | >1 µM |
| NC1(c2cccc(-c3ccc(-c4cc(=O)n(O)c5ncccc45)cc3)c2)CC1 | HeLa |  | <100 µM |
| CCCNC(=S)Nc1cccc(OCCCCCc2ccccc2)c1 | Ava5-EG(delta4AB)SEAP | MTS | >1 µM |
| N#Cc1cccc(-c2cccc(NC(=O)NCCc3ccc4c(n3)NCCC4)n2)c1 | PBMC |  | 13 µM |
| CCOC(=O)CCCCCOc1cccc(CN(C(=O)c2ccc(-c3cccc(N(C)C)c3)cc2)C(C)C)c1 | RAJI |  | >20 µM |
| COc1ccc(-c2ccc(OCCCCCOc3cccc(NC(N)=S)c3)cc2)cc1 | Ava5-EG(delta4AB)SEAP | MTS | >1 µM |
| CC(C)NC(=O)NCCc1ccc2c(n1)NCCC2 | PBMC |  | 50 µM |
| NC(=S)Nc1cccc(OCCCCCOc2nccc3ccccc23)c1 | Ava5-EG(delta4AB)SEAP | MTS | >1 µM |
| CCOC(=O)CCCCCOc1cccc(CN(C(=O)c2ccc(-c3ccc4cc[nH]c4c3)cc2)C(C)C)c1 | RAJI |  | >20 µM |
| S=C1NCCN1C(=S)Nc1cccc(OCCCCCc2ccccc2)c1 | Ava5-EG(delta4AB)SEAP | MTS | >1 µM |
| CC(NC(=O)NCCc1ccc2c(n1)NCCC2)c1cccc2ccccc12 | PBMC |  | 50 µM |
| CCOC(=O)CCCCCOc1cccc(CN(C(=O)c2ccc(-c3cccc(-c4ccccc4)c3)cc2)C(C)C)c1 | BJ |  | >20 µM |

2 of the rows above, restated:

compound,cells,read by,result
CCCNC(=S)Nc1cccc(OCCCCCc2ccccc2)c1,Ava5-EG(delta4AB)SEAP,MTS,>1 µM
CCOC(=O)C1=C(CN2CC(F)(F)[C@H]3[C@@H]2CCN3C[C@@H](O)C(C)(C)C(=O)O)NC(c2nccs2)=N[C@H]1c1cccc(F)c1C,HepG2.2.15,WST / absorbance,6.5 µM